Reference: publication PMC12587552, “A nitrogen-containing diphyllin derivative C156-P1 exhibited broad-spectrum antiviral activity against Flaviviridae viruses by preventing endosomal acidification” (Antimicrobial Agents and Chemotherapy, 2025)

Test system: DENV-2

COc1cc2c(OCC#N)c3c(c(-c4ccc5c(c4)OCO5)c2cc1OC)C(=O)OC3 [Compound C156-P1]
Antiviral activity against DENV-2 relative to parental compound DP (fold greater) (A549 cells): ~300 fold | SIs, bound stated (DENV-2 in Vero, HUVEC, and Huh7 cells): > 100
